Measured values as given in patent US20210128567A1, “Compositions and Methods for Cognitive, Immune and Digestive Support in Patients with Autism Spectrum Disorder” (FLAASK, LLC, priority 2017, published 2021).

Test system: children with confirmed ASD diagnoses
Assay: Outcome of therapies received prior to the subject treatment, as reported by parents
Assay type: in vivo, human
Details: patient one, given together

Viferon: drug the child was treated by, with Valtrex, prior to the treatment
result of prior treatment by Valtrex and Viferon: they are getting sick more rarely, learned to swim and to communicate through PECS cards
